# This is a selection; strong and weak results do not stand in their true shares. The source made the active and inactive calls. Calls come from the whole dose curve; as a rule, active = well fitted curve in the direction sought with a large enough effect; inconclusive = small, poorly fitted or top-dose-only effect; inactive = flat fitted curve, though single readings scatter.
# System: DNA polymerase III holoenzyme (E. coli)
# Assay: qHTS Assay for Inhibitors of DNA Polymerase III Holoenzyme System
# Conditions: reconstituted DNA polymerase III holoenzyme replication, biochemical; at 57.1 µM (top of the series) unless noted
# Procedure: NIH Molecular Libraries Screening Centers Network [MLSCN]
# NIH Chemical Genomics Center [NCGC]
# Assay Provider: Charles McHenry, University of Colorado
# E. coli DNA polymerase III holoenzyme complex was assayed for DNA production by fluorescent detection of the double-stranded DNA product with PicoGreen dye. The holoenzyme complex was reconstituted from the following purified protein components: DNA Polymerase III, beta subunit processivity factor, SSB single-stranded DNA binding protein, and Primase. Single-stranded, circular M13Gori was used as a substrate with dNTPs and NTPs also supplied to the substrate reagent. Compounds from the NCGC collection were incubated with the holoenzyme mixture for 15 min at room temperature to allow binding to occur, and then the reaction was started by the addition of substrate. After 30 min incubation at room temperature, PicoGreen solution containing EDTA was added to stop the reaction and to visualize the double-stranded DNA produced. Reaction progress was measured in a ViewLux CCD imager in fluorescence intensity mode by using 480 nm excitation and 540 nm emission filter set.
# NCGC Assay Protocol Summary:
# Buffer. 50 mM Hepes-KOH, pH 7.5, 5 % Glycerol, 0.02% NP40, 30 mM potassium;
# glutamate, 1.5 mM Magnesium Acetate, 16 uM TCEP.
# Buffer in columns 3 and 4 as negative control (no enzyme).
# Substrate solution: 5 uM each dATP, dGTP, dCTP and TTP, 50 uM each GTP, CTP, UTP and 200 uM ATP, 1.4 nM M13gori (final concentrations).
# Enzyme: 154 nM SSB, 2 nM Primase, 1 nM Beta, 0.35 nM Pol III (final concentrations).
# PicoGreen/EDTA: 10 mM Tris-HCl, 10 mM EDTA, 5 uM PicoGreen (final concentrations).
# Control titration: ChemBridge 5805060 (from 10 mM, then 1:2, in duplicate) was pin-transferred to upper half of column 2.
# Three uL of holoenzyme mixture were dispensed to 1536-well Greiner black solid bottom plates. Compounds and controls (23 nL) were transferred via Kalypsys PinTool. The plates were incubated for 15 min at room temperature, and then 1 uL of substrate solution was added to start the reaction. After room temperature incubation for 35 minutes, 1 uL of PicoGreen solution was added to each well and the plates were read 480 nm excitation and 540 nm emission using ViewLux (Perkin-Elmer) High-throughput CCD imager and fluorescence protocol settings.
# Keywords: NIH Roadmap, MLSCN, MLI, MLSMR, qHTS, NCGC, DNA Polymerase III, DNAPol3, DNAPoly3, DNA replication targets
# % is set by controls: 0 for no effect and ±100 for the full control effect.
row,Compound,"activity change, negative = inhibition"
1,CP(=O)(Nc1ccccc1F)Oc1ccccc1 (stereo not given),inactive: 0.4%
2,Cc1cccc([N+](=O)[O-])c1[N+](=O)[O-],inactive: -1.8%
3,CCC(C)(OO)OOC(C)(CC)OO (stereo not given),inactive: -4.3%
4,Cc1ccc([N+](=O)[O-])c([N+](=O)[O-])c1,inactive: 1.1%
5,Cc1c([N+](=O)[O-])cccc1[N+](=O)[O-],inactive: -0.7%
6,CN(C)CCOC(=O)C(O)(c1ccccc1)C1CCCCC1 (stereo not given),inactive: -5.7%
7,CP(=O)(Nc1ccc2c(c1)OCCO2)Oc1ccccc1 (stereo not given),inactive: -5.8%
8,NNC(NN)NN.n1nc(-c2nn[nH]n2)n[nH]1,inactive: -6.1% [at 11.4 µM]
9,[NH4+].[O-][Cl+3]([O-])([O-])[O-],inactive: -0.8%
10,Cc1ccccc1NP(C)(=O)Nc1ccccc1C,inactive: -4.3%
11,CCOP(=O)(CC)OCC,inactive: -0.9%
12,CCOP(C)(=S)SCC(=O)NC(C)(CC)C(=O)O (stereo not given),inactive: -6.9%
13,N#[O+].[C-]#N.[C-]#N.[C-]#N.[C-]#N.[C-]#N.[Fe+2].[Na+].[Na+],inactive: -28.9%
14,CP(=O)(Oc1ccccc1)N1CCOC1=O (stereo not given),inactive: -1.1%
15,COc1ccccc1OP(C)(=O)Nc1c(C)n(C)n(-c2ccccc2)c1=O (stereo not given),inactive: -0.1%
16,C/C1=C2N=C(/C=C3N=C(/C(C)=C4\[N-][C@@](C)([C@H]5N=C1[C@@](C)(CCC(=O)NC[C@H](C)OP(=O)([O-])O[C@@H]1[C@H](O)[C@H](n6cnc7cc(C)c(C)cc76)O[C@@H]1CO)[C@@H]5CC(N)=O)[C@](C)(CC(N)=O)[C@H]4CCC(N)=O)[C@@](C)(CC(N)=O)[C@@H]\3CCC(N)=O)C(C)(C)[C@@H]/2CCC(N)=O.[C-]#N.[Co+3],inactive: 8.5% [at 25.6 µM]
17,Cc1nc2ccc3ccccc3c2o1.O=[N+]([O-])c1cc([N+](=O)[O-])c(O)c([N+](=O)[O-])c1,inactive: -3.4%
18,COc1ccccc1OP(C)(=O)Nc1ccc(C)c(C)c1 (stereo not given),inactive: -2.3%
19,CP(=O)(Nc1ccccn1)Oc1ccccc1 (stereo not given),inactive: -8.3%
20,O=[N+]([O-])[O-].[NH4+],inactive: -6.1%
21,Cc1ccc(NP(C)(=O)Oc2ccccc2)c(C)c1 (stereo not given),inactive: -6.2%
22,COc1ccccc1OP(C)(=O)Nc1ccc(C)cc1 (stereo not given),inactive: -2.9%
23,CP(=S)(Nn1cnnc1)Oc1ccccc1 (stereo not given),inactive: -3.7%
24,N1=C(c2nnc(-c3nn[nH]n3)nn2)NNN1,inactive: -1.8% [at 11.4 µM]
25,CCOP(C)(=S)SCC(=O)NC(C)C(=O)O (stereo not given),inactive: -0.7%
26,CP(=O)(NC(=O)Nc1ccccc1)Oc1ccccc1 (stereo not given),inactive: 1.8%
27,Cc1nc2ccc3ccccc3c2s1.O=[N+]([O-])c1cc([N+](=O)[O-])c(O)c([N+](=O)[O-])c1,inactive: -3.2%
28,Cc1ccc([N+](=O)[O-])cc1[N+](=O)[O-],inactive: -1.9%
29,O=[N+]([O-])c1cccc([N+](=O)[O-])c1,inactive: -3.2%
30,Cc1ccc(C)c(NP(C)(=O)Oc2ccccc2)c1 (stereo not given),inactive: 4.4%
